The exact form of at least one protein or probe is not confirmed.
What was measured:
CRP (Vibrio vulnificus) [1] = experiment: EMSA; conditions: 1 mM cAMP, unlabeled self-competitor competes; EMSA 10 nM probe (DNase I 40 nM), 30 min, 30 C, 20 ul, 0.1 ug poly(dI-dC); recombinant protein; protein details: His6; probe letters rebuilt from the primers and the genome
Lrp [2] = experiment: EMSA; conditions: poly(dI-dC) 0.1 ug, unlabeled self-competitor competes; EMSA 10 nM probe (DNase I 40 nM), 30 min, 30 C, 20 ul, 0.1 ug poly(dI-dC); recombinant protein; protein details: His6; probe letters rebuilt from the primers and the genome
[3] = target: NsrR (Vibrio vulnificus MO6-24/O) (UniProt Q8DCU1); experiment: EMSA; conditions: poly(dI-dC) 0.1 ug, unlabeled self-competitor competes; EMSA 10 nM probe (DNase I 40 nM), 30 min, 30 C, 20 ul, 0.1 ug poly(dI-dC); recombinant protein; protein details: His6; probe letters rebuilt from the primers and the genome
NsrR + Lrp = experiment: EMSA; conditions: simultaneous binding of NsrR and Lrp, Lrp binding buffer; EMSA 10 nM probe (DNase I 40 nM), 30 min, 30 C, 20 ul, 0.1 ug poly(dI-dC); recombinant protein; protein details: His6,His6; probe letters rebuilt from the primers and the genome
CRP (Vibrio vulnificus) [4] = experiment: DNase I footprinting; conditions: 1 mM cAMP, protects CRPB1 -10 to +10, CRPB2 -69 to -31, CRPB3 -99 to -88 from nsrR TSS; recombinant protein; protein details: His6; probe letters rebuilt from the primers and the genome
Lrp [5] = experiment: DNase I footprinting; conditions: protects -75 to -11 from hmpA TSS (LRPB), phased hypersensitivity; recombinant protein; protein details: His6; probe letters rebuilt from the primers and the genome
[6] = target: NsrR (Vibrio vulnificus MO6-24/O) (UniProt Q8DCU1); experiment: DNase I footprinting; conditions: protects -2 to +18 from hmpA TSS (NSRRB); recombinant protein; protein details: His6; probe letters rebuilt from the primers and the genome

Measured: binding result

ATTGCGTTGGTTGCTCATGTTAAAGATATCTTTGAGTTCAGGATTGTGCTCAAACATACGTTGGTAGAAATGGGCGGTCAGTTTTGGTCCTGTTTCGGCCAACAGGGGGGCGGTCGATTTTACAATGTTAATGGTGTTTTCGCTGAGCATAGCGGGCTTCCTATTAGGATTATTTGTTTAATTTTAAGTTGCATCTGTAATGCATGTTTAAAGTTGTATCTCAAATGTATCTTTCAATCAAGAAAAGTTTTAGACTTTCTTCACCATAGAGGAGCCCACCATGCAACTGACGAGCTTTACTGATTACGCCTTGCGCACCCTGATTTATCTCGCGTCGTTGCCGGATAATGAACAGACCAATATCACCGATGTGACTGAGCTATTTGGTGTTTC (double strand) [nsrR-hmpA regulatory region, 393 bp]
binds: all assays above
